The results in this text go back to ChEMBL document CHEMBL1671627, “Increasing trends in antimicrobial resistance among clinically important anaerobes and Bacteroides fragilis isolates causing nosocomial infections: emerging resistance to carbapenems” (2008).

The structures appear in SMILES notation.

For this assay, the system named is Clostridium perfringens. The experiment in a line: Antibacterial activity against beta-lactamase producing Clostridium perfringens by CLSI agar dilution method. It is filed as functional.

As usually defined, the MIC50 is the lowest concentration that inhibits either 50% of growth or 50% of the strains tested, depending on the study. Read a high MIC50 as weaker potency. As for `C[C@H]1COc2c(N3CCN(C)CC3)c(F)cc3c(=O)c(C(=O)O)cn1c23.C[C@H]1COc2c(N3CCN(C)CC3)c(F)cc3c(=O)c(C(=O)O)cn1c23.O` [LEVOFLOXACIN], the MIC50 worked out at 0.5 µg/mL.
